Compound potency records, mixed from different reports. Data source: NIAID ChemDB in PubChem.

Shared fields: whole-cell or culture tests; agent: Herpes simplex virus 2; method: cytopathic effect; read-out: EC50

Rows are shuffled and stem from different studies. An empty or dashed field is not shown. ECn is the concentration giving n% inhibition of infection, replication or growth.

| SMILES | cell line | strain or isolate | value |
|---|---|---|---|
| Nc1ncnc2c1ncn2C[C@@H](O)[C@H](O)C(=O)O | PRK | - | >400 µg/mL |
| OCCOC([C@H](O)CO)n1cnc2cc(Cl)c(Cl)cc21 | E6SM | G | >400 µg/mL |
| O=C(CP(=O)(O)O)OC[C@H]1O[C@@H](n2cc(CCCl)c(=O)[nH]c2=O)C[C@@H]1O | VERO | TK- | >72.7 µM |
| Nc1ncc2ncn(CCOCP(=O)(O)O)c2n1 | Primary rabbit kidney cells | 3 strains | 10 µg/mL |
| Nc1nc2c(ncn2COCCO)c(=O)[nH]1 | E6SM | G | 0.09 µg/mL |
| Nc1nc2c(ncn2C[C@H]2CC[C@@H](CO)C2)c(=O)[nH]1 | E6SM | G | >400 µg/mL |
| CCOC(=O)P(=O)(OC)OC[C@H]1O[C@@H](n2cc(I)c(=O)[nH]c2=O)C[C@@H]1O | VERO | TK- | >5.9 µM |
| Clc1cc2nc[nH]c2cc1Cl | E6SM | G | 10 µg/mL |
| Nc1nccc2c1ncn2[C@@H]1O[C@H](CO)[C@@H](O)[C@H]1O | PRK | G | ≥400 µg/mL |
| Cc1ccc2c(c1)COP(=O)(OCCOCn1cnc3c(=O)[nH]c(N)nc31)O2 | E6SM | G | 0.26 µg/mL |
| OC[C@H]1O[C@@H](n2cnc3cc(Cl)c(Cl)cc32)[C@H](O)[C@H]1O | E6SM | G | >4 µg/mL |
| O=C(O)P(=O)(O)O | HEL | HS-44 | 14 µg/mL |
| Nc1nc(NC2CC2)c2ncn([C@H]3C=C[C@@H](CO)C3)c2n1 | E6SM | G | ≥40 µg/mL |
| OCCOC(CCO)n1cnc2cc(Cl)c(Cl)cc21 | E6SM | G | >100 µg/mL |
| O=C(O)CP(=O)(O)O | VERO | K979 | >71.4 µM |
| NC(=O)c1ccnc([C@@H]2O[C@H](CO)[C@@H](O)[C@H]2O)c1 | PRK | - | >400 µg/mL |
| Nc1nccc2c1ncn2[C@@H]1C[C@H](CO)[C@@H](O)[C@H]1O | PRK | - | ≥300 µg/mL |
| O[C@H]1[C@@H](O)COC(n2cnc3cc(Cl)c(Cl)cc32)[C@@H]1O | E6SM | G | >400 µg/mL |
| Nc1nc2c(ncn2COCCO)c(=O)[nH]1 | VERO | TK- | >132 µM |
| Nc1nccc2c1ncn2[C@@H]1C[C@H](CO)[C@@H](O)[C@H]1O | E6SM | G | 200 µg/mL |
| Nc1nc2ncn(COCCCl)c2c(=O)[nH]1 | VERO | G | >128 µg/mL |
| Cc1cn([C@@H]2O[C@H](CO)[C@@H](O)[C@@H]2O)c(=O)[nH]c1=O | HEL | HS-47 | 0.25 µg/mL |
| Cc1cccc2c1OP(=O)(OCCOCn1cnc3c(=O)[nH]c(N)nc31)OC2 | E6SM | G | 0.26 µg/mL |
| Nc1nc2c(ncn2COC(CO)CO)c(=O)[nH]1 | HEL | PCV-resistant/A | 0.32 µg/mL |
| C[C@H](COc1cc(N)nc(N)n1)OCP(=O)(O)O | - | G | 17 µM |
| Nc1ncnc2c1ncn2C[C@@H](CO)OCP(=O)(O)O | Primary rabbit kidney cells | 3 strains | 4 µg/mL |
| O=c1[nH]c(=O)n([C@H]2C[C@H](O)[C@@H](CO)O2)cc1/C=C/Br | E6SM | G | 240 µg/mL |
| CC1=C(C)C(CO)(CO)C[C@H]1n1cnc2c(N)ncnc21 | VERO | - | >100 µg/mL |
| NC(=O)c1ncn([C@@H]2O[C@H](CO)[C@@H](O)[C@H]2O)c1C#Cc1ccccc1 | PRK | G | >400 µg/mL |
| O=c1[nH]c(=O)n([C@H]2C[C@H](O)[C@@H](CO)O2)cc1C1CCC1 | E6SM | G 196 LYONS | 850 µM |
| CCCC#Cc1c(C(N)=O)ncn1[C@@H]1O[C@H](CO)[C@@H](O)[C@H]1O | PRK | G | >400 µg/mL |
| Nc1ncnc2c1ncn2C[C@H]1COP(=O)(O)CO1 | Primary rabbit kidney cells | 3 strains | 4 µg/mL |
| Nc1ncnc2c1ccn2[C@@H]1O[C@H](CO)[C@@H](O)[C@H]1O | PRK | - | >0.1 µg/mL |
| Nc1ncnc2c1ncn2C[C@@H](CO)OCP(=O)(O)O | - | G | 13 µM |
| Nc1nccc2c1ncn2[C@@H]1C[C@H](CO)[C@@H](O)[C@H]1O | PRK | G | >400 µg/mL |
| O=c1[nH]c(=O)n([C@H]2C[C@H](O)[C@@H](CO)O2)cc1/C=C/Br | HEL | HS-47 | >50 µg/mL |
| Nc1nc(NC2CC2)c2ncn([C@H]3C=C[C@@H](COP4(=O)OCc5ccccc5O4)C3)c2n1 | E6SM | G | 7.2 µg/mL |
| O=C(O)P(=O)(O)O | HEL | PCV-resistant/B | 10 µg/mL |
| Nc1ncnc2c1ccn2[C@@H]1C[C@H](CO)[C@@H](O)[C@H]1O | PRK | - | 7 µg/mL |
| O=c1[nH]c(=O)n([C@H]2C[C@H](O)[C@@H](CO)O2)cc1C1CCCC1 | E6SM | G 196 LYONS | >1200 µM |
| Nc1nc(N)c2nnn(C[C@H]3CC[C@@H](CO)C3)c2n1 | E6SM | G | >400 µg/mL |
| Nc1ncnc2c1ncn2C[C@@H](CO)OCP(=O)(O)O | HEL | G | 0.08 µg/mL |
| Nc1nc(Cl)c2nnn(C[C@H]3CC[C@@H](CO)C3)c2n1 | E6SM | G | >200 µg/mL |
| Nc1cc(OCCOCP(=O)(O)O)nc(N)n1 | - | G | 91 µM |
| O=C(O)CP(=O)(O)O | HEL | HS-47 | 10.5 µg/mL |
| NC(=O)c1ncn([C@@H]2O[C@H](CO)[C@@H](O)[C@H]2O)c1C#CCCO | PRK | G | >400 µg/mL |
| O=c1ccn([C@H]2C[C@H](O)[C@@H](CO)S2)c(=O)[nH]1 | E6SM | G 196 LYONS | 96 µM |
| Nc1nc2c(ncn2COC(CO)CO)c(=O)[nH]1 | HEL | HS-44 | 6 µg/mL |
| CC1=C(C)[C@](CO)(c2ccccc2)C[C@H]1n1cnc2c(N)ncnc21 | VERO | - | >100 µg/mL |
| Nc1ccn([C@@H]2C[C@H](CO)[C@@H](O)[C@H]2O)c(=O)n1 | PRK | G | 400 µg/mL |
| Nc1ncnc2c1ncn2CCOCP(=O)(O)O | Primary rabbit kidney cells | 3 strains | 7 µg/mL |